Results of unrelated studies side by side (data: NIAID ChemDB).

Shared fields: growth or infection tests; organism: Herpes simplex virus 2; cells: VERO; read-out: EC50

Conditions beyond the fields shown may differ between rows. An empty or dashed field is not shown. ECn: concentration that inhibits the pathogen or its effect by n%.

compound | strain | method | value
CCOP(=O)(OCC)C1=NOC(Cn2cc(C)c(=O)[nH]c2=O)C1 | - | plaque count | >400 µM
CC(C)(C)[Si](C)(C)OC[C@H]1O[C@@H](n2ccc(=O)[nH]c2=O)[C@H](O[Si](C)(C)C(C)(C)C)C1(O)C(Cl)C(N)=O | - | plaque count | >3.8 µM
CC(C)O[C@@H]1[C@H](OC(C)C)[C@@H](COS(=O)(=O)NC(=O)O[C@H]2O[C@H](COC(=O)c3ccccc3)[C@@H](OC(=O)c3ccccc3)[C@H](OC(=O)c3ccccc3)[C@H]2OC(=O)c2ccccc2)O[C@H]1n1ccc(=O)[nH]c1=O | Lovelace | plaque count | 30 µg/mL
Nc1nc(Cl)c2c(ncn2[C@@H]2O[C@H](CO)[C@@H](O)[C@H]2O)n1 | MS | cytopathic effect | 20 µg/mL
Cc1cn([C@@H]2O[C@H](CO)[C@@H](O)[C@@H]2F)c(=O)[nH]c1=O | 333 | plaque count | 0.4 µM
COc1cc(/C=N/N=C(/N)NO)cc(OC)c1OC.Cc1ccc(S(=O)(=O)O)cc1 | G | plaque count | >50 µM
[N-]=[N+]=NC(CBr)c1cn(CCC(CO)CO)c(=O)[nH]c1=O | MS | plaque count | >270 µM
Nc1nc2c(ncn2CC[C@@H](O)CO)c(=O)[nH]1 | 91075 | plaque count | 4 µM
Cc1cn([C@@H]2C[C@H](CO)[C@@H](O)C2)c(=O)[nH]c1=O | MS | cytopathic effect | 7 µg/mL
COC(=O)[C@@H]1O[C@]12[C@@H](CO[Si](C)(C)C(C)(C)C)O[C@@H](n1ccc(=O)[nH]c1=O)[C@@H]2O[Si](C)(C)C(C)(C)C | - | plaque count | 26 µM
CC12CC[C@]3(C1)[C@H](CC2=O)[C@@H](O)C[C@H]1C(C)(C)CCC[C@@]13C | - | - | 10 µg/mL
CCCCCCCC/C=C\CCCCCCCC(=O)OC(COC(=O)CCCCCCCCCCC)CO[C@@H]1O[C@H](CO)[C@@H](O)[C@H](O)[C@H]1O | 186 | plaque count | >50 µg/mL
Nc1nc2c(ncn2CCC(O)CO)c(=O)[nH]1 | B4327 | plaque count | 18 µM
Nc1nc2c(ncn2COCCO)c(=O)[nH]1 | 91075 (acyclovir-resistant) | plaque count | 65 µM
CCCCC(C)(C)[C@H](O)/C=C/[C@H]1C=CC(=O)[C@@H]1CCCCCCC(=O)O | G | hybridisation | 3.8 µg/mL
Nc1nc(=O)n([C@H]2C=C(F)[C@@H](CO)O2)cc1F | MS | cytopathic effect | <0.5 µM
CCOC(=O)CC1(O)[C@@H](CO[Si](C)(C)C(C)(C)C)O[C@@H](n2ccc(=O)[nH]c2=O)[C@@H]1O[Si](C)(C)C(C)(C)C | - | plaque count | >3.4 µM
CC(=O)OC[C@H]1O[C@@H](OC(=O)NS(=O)(=O)OC[C@H]2O[C@@H](n3ccc(=O)[nH]c3=O)[C@H](OC(C)C)[C@@H]2OC(C)C)[C@@H](OC(C)=O)[C@@H](OC(C)=O)[C@@H]1OC(C)=O | Lovelace | plaque count | >100 µg/mL
CC/C=C/C/C=C/C/C=C/CCCCCCCC(=O)OC[C@H](CO[C@@H]1O[C@H](CO)[C@@H](O)[C@H](O)[C@H]1O)OC(=O)CCCCCCC/C=C/C/C=C/C/C=C/CC | 186 | plaque count | 18.5 µg/mL
COCc1cn([C@H]2C[C@H](O)[C@@H](CO)O2)c(=O)nc1N | MS | plaque count | 228 µM
O=c1ccn(N2C[C@H](CO)[C@H]2CO)c(=O)[nH]1 | - | plaque count | >10 µg/mL
O=C(O)P(=O)(O)O | G-FMAU-C1 | plaque count | 47 µM
CCOP(=O)(OCC)C1=NOC(n2ccc(NC(C)=O)nc2=O)C1 | - | plaque count | >200 µM
Nc1ccn([C@H]2O[C@@H](CO)[C@H](O)[C@H]2F)c(=O)n1 | G-FMAU-C1 | plaque count | 3.4 µM
CC(=O)N[C@H]1[C@@H](OC(=O)NS(=O)(=O)OC[C@H]2O[C@@H](n3ccc(=O)[nH]c3=O)[C@H](OC(C)C)[C@@H]2OC(C)C)O[C@H](COC(=O)c2ccccc2)[C@@H](OC(=O)c2ccccc2)[C@@H]1OC(=O)c1ccccc1 | Lovelace | plaque count | >100 µg/mL
CCCCCCCCCCCCCCCCCCCCCC(=O)OC(COC(=O)CCCCCCCCCCCCCCCCC)CO[C@@H]1O[C@H](CO)[C@@H](O)[C@H](O)[C@H]1O | 186 | plaque count | >50 µg/mL
Nc1nc(=O)n([C@@H]2OC3COP(=O)([O-])OC3[C@H]2O)cc1F | MS | cytopathic effect | 92 µM
Nc1nc2c(ncn2CCCCO)c(=O)[nH]1 | B4327 UR2 | plaque count | 13 µM
CC1(C)CCC[C@@]2(C)[C@H]1C[C@@H](O)C1=CC(=O)[C@@]3(C)CC[C@]12C3 | - | - | 14 µg/mL
Nc1nc2c(ncn2CCC(CO)CO)c(=O)[nH]1 | - | cytopathic effect | 5.3 µg/mL
CCCCCCCCCCCCCCCCCC(=O)OCC(CO[C@@H]1O[C@H](CO)[C@@H](O)[C@H](O)[C@H]1O)OC(=O)CCCCCCCCCCC | 186 | plaque count | >50 µg/mL
Nc1ccn([C@@H]2O[C@H](CO)[C@@H](O)[C@@H]2O)c(=O)n1 | MS | cytopathic effect | 1.1 µM
CC(=O)OC[C@H]1O[C@H](OC(=O)NS(=O)(=O)OC[C@H]2O[C@@H](n3ccc(=O)[nH]c3=O)[C@H](OC(C)C)[C@@H]2OC(C)C)[C@H](OC(C)=O)[C@@H](OC(C)=O)[C@@H]1OC(C)=O | Lovelace | plaque count | >100 µg/mL
COC(=O)CC(=O)O[C@@H]1C[C@@H]2CC[C@H]3C(C)(C)CCC[C@]3(C)[C@]23CCC1(C)C3 | - | - | 15 µg/mL
Nc1nc(=O)n([C@@H]2O[C@H](CO)[C@@H](O)[C@@H]2F)cc1I | G-FAC-C1 | plaque count | 15 µM
CC(C)O[C@@H]1[C@H](OC(C)C)[C@@H](COS(=O)(=O)NC(=O)O[C@H]2O[C@H](COCc3ccccc3)[C@@H](OCc3ccccc3)[C@H](OCc3ccccc3)[C@H]2OCc2ccccc2)O[C@H]1n1ccc(=O)[nH]c1=O | Lovelace | plaque count | 10 µg/mL
Cc1cn([C@@H]2O[C@H](CO)[C@@H](O)[C@@H]2F)c(=O)[nH]c1=O | G-FIAC-C1 | plaque count | 11 µM
CC(C)O[C@@H]1[C@H](OC(C)C)[C@@H](COS(=O)(=O)NC(=O)O[C@H]2O[C@H](COCc3ccccc3)[C@H](OCc3ccccc3)[C@H](OCc3ccccc3)[C@H]2OCc2ccccc2)O[C@H]1n1ccc(=O)[nH]c1=O | Lovelace | plaque count | 50 µg/mL
Nc1nc2c(ncn2COC(CO)CO)c(=O)[nH]1 | - | cytopathic effect | 1.4 µg/mL
COc1cc(OC)c(OC)cc1/C=N/N=C(/N)NO.Cc1ccc(S(=O)(=O)O)cc1 | G | plaque count | >50 µM
O=c1[nH]c(=O)n([C@@H]2C[C@H](CO)[C@@H](O)C2)cc1Br | MS | cytopathic effect | 20 µg/mL
NC1=NC2C(C=CN2CC(CO)CCO)C(=O)N1 | - | cytopathic effect | 11 µg/mL

The first 5 rows once more:

compound	strain	method	value
CCOP(=O)(OCC)C1=NOC(Cn2cc(C)c(=O)[nH]c2=O)C1	-	plaque count	>400 µM
CC(C)(C)[Si](C)(C)OC[C@H]1O[C@@H](n2ccc(=O)[nH]c2=O)[C@H](O[Si](C)(C)C(C)(C)C)C1(O)C(Cl)C(N)=O	-	plaque count	>3.8 µM
CC(C)O[C@@H]1[C@H](OC(C)C)[C@@H](COS(=O)(=O)NC(=O)O[C@H]2O[C@H](COC(=O)c3ccccc3)[C@@H](OC(=O)c3ccccc3)[C@H](OC(=O)c3ccccc3)[C@H]2OC(=O)c2ccccc2)O[C@H]1n1ccc(=O)[nH]c1=O	Lovelace	plaque count	30 µg/mL
Nc1nc(Cl)c2c(ncn2[C@@H]2O[C@H](CO)[C@@H](O)[C@H]2O)n1	MS	cytopathic effect	20 µg/mL
Cc1cn([C@@H]2O[C@H](CO)[C@@H](O)[C@@H]2F)c(=O)[nH]c1=O	333	plaque count	0.4 µM